Measured values from several laboratories, pooled; numbers as filed in NIAID ChemDB.

Shared fields: whole-cell or culture tests; agent: Herpes simplex virus 2; cell line: HEL; read-out: EC50

An empty or dashed field is not shown. ECn: concentration that inhibits the pathogen or its effect by n%. Neighbouring rows are from separate reports.

compound | strain or isolate | read by | result
Nc1nccc2c1ncn2[C@H]1C[C@H](O)[C@@H](CO)O1 | G |  | >100 µM
Nc1nc2c(ncn2COC(CO)CO)c(=O)[nH]1 | PCV-resistant/A | cytopathic effect | 0.32 µg/mL
Nc1nc2c(ncn2CCC(CO)CO)c(=O)[nH]1 | HS-44 | cytopathic effect | >20 µg/mL
Nc1ncnc2c1ccn2[C@H]1C[C@H](O)[C@@H](COP(=O)(O)COC(=O)[C@@H](N)CC(=O)O)O1 | G |  | >100 µM
Nc1ccn(C[C@@H](CO)OCP(=O)(O)O)c(=O)n1 | G | cytopathic effect | 0.11 µg/mL
COC(=O)CN(CC(=O)OC)P(=O)(OC[C@H]1O[C@@H](n2cnc3c(N)ccnc32)C[C@@H]1O)Oc1ccccc1 | G |  | >100 µM
O=c1[nH]c(=O)n([C@@H]2O[C@H](CO)[C@@H](O)[C@@H]2O)cc1C=C(Br)Br |  | plaque count | >751 µM
CC(C)(C)C(=O)OCOC(=O)CN(CC(=O)OCOC(=O)C(C)(C)C)P(=O)(OC[C@H]1O[C@@H](n2cnc3c(N)ccnc32)C[C@@H]1O)Oc1ccccc1 | G |  | >20 µM
Cc1cn([C@@H]2O[C@H](CO)[C@@H](O)[C@@H]2F)c(=O)[nH]c1=O |  | plaque count | 0.162 µM
Nc1nc2c(ncn2CCC(CO)CO)c(=O)[nH]1 | G | cytopathic effect | 0.08 µg/mL
O=C(O)CP(=O)(O)O | HS-47 | cytopathic effect | 10.5 µg/mL
C[C@H](N)C(=O)OCP(=O)(OC[C@H]1O[C@@H](n2cc(/C=C/Br)c(=O)[nH]c2=O)C[C@@H]1O)Oc1ccccc1 | G |  | >20 µM
Nc1nc(=O)n([C@@H]2O[C@H](CO)[C@@H](O)[C@@H]2F)cc1I | HS-47 | cytopathic effect | 0.11 µg/mL
O=C(O)CP(=O)(O)O | PCV-resistant/A | cytopathic effect | 6.4 µg/mL
O=C(O)P(=O)(O)O | HS-44 | cytopathic effect | 14 µg/mL
CC(C)(C)C(=O)OCOC(=O)CN(CC(=O)OCOC(=O)C(C)(C)C)P(=O)(OC[C@H]1O[C@@H](n2ccc3c(N)ncnc32)C[C@@H]1O)Oc1ccccc1 | G |  | >100 µM
O=c1[nH]c(=O)n([C@@H]2O[C@H](CO)[C@@H](O)[C@@H]2O)cc1I |  | plaque count | 31 µM
Nc1nc2c(ncn2COC(CO)CO)c(=O)[nH]1 | HS-44 | cytopathic effect | 6 µg/mL

The first 2 rows once more:

Nc1nccc2c1ncn2[C@H]1C[C@H](O)[C@@H](CO)O1 ; strain or isolate: G ; result: >100 µM
Nc1nc2c(ncn2COC(CO)CO)c(=O)[nH]1 ; strain or isolate: PCV-resistant/A ; read by: cytopathic effect ; result: 0.32 µg/mL